Experiment [1] deals with T1, Histamine H4 receptor (Homo sapiens, UniProt Q9H3N8). The experiment can be described thus: Inhibition of the forskolin-stimulated cAMP production in SK-N-MC cells expressing human Histamine H4 receptor. It counts as functional, cell-based. In general terms: cAMP levels reflect the balance of adenylyl cyclase and phosphodiesterase activity.
The target in experiment [2] is T1, Histamine H4 receptor. The experiment can be described thus: Histamine H4 receptor competition binding using [3H]Na-methylhistamine.

Protein sequences, listed by entry. Tags and fused reporters are not part of them. Lines headed by an entry give the natural chain unless they say otherwise; changes in a name come on top.
UniProt Q9H3N8: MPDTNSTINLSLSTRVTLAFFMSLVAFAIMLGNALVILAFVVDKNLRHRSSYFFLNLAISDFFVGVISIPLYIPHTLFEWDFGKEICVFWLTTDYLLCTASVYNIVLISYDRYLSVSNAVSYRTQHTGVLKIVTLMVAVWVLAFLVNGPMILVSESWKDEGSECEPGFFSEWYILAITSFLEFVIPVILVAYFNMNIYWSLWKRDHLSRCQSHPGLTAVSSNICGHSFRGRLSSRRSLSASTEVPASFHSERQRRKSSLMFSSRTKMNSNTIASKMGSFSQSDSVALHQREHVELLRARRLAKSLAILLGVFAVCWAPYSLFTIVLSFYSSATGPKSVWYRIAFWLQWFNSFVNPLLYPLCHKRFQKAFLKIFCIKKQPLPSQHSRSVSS

Usually EC50 stands for the concentration at which the effect is half-maximal. Low values mean an effect from little substance, high ones a need for much substance. What is called Ki is a measure of affinity in units of concentration, obtained from inhibition or displacement. High values mean a looser hold on the target, low ones a stronger hold on the target.

`C/N=C(\NC#N)NC[C@H]1CC[C@@H](c2c[nH]cn2)O1` (single isomer, unassigned) gave an EC50 at Histamine H4 receptor [1] of 7.59 µM. Moreover, the Ki on Histamine H4 receptor [2] was 8.13 µM.

The record behind these values is ChEMBL document CHEMBL1145842, “A selective human H(4)-receptor agonist: (-)-2-cyano-1-methyl-3-[(2R,5R)-5- [1H-imidazol-4(5)-yl]tetrahydrofuran-2-y] methylguanidine” (J Med Chem, 2003).
